Measured values published in patent US20210346356A1, “INHIBITING UBIQUITIN SPECIFIC PEPTIDASE 9X” (FORMA THERAPEUTICS, INC., priority 2018, published 2021).

Test system: SEB-exhausted human PBMCs
Experiment: IFNγ production in SEB-exhausted human PBMCs (Example 1)
Type: cell-based
Settings: SEB-stimulated PBMCs, rested 2 days with agent; FIG. 1, FIG. 3A

## CNC[C@H](C(=O)N1CC2=C(C1)CN(S(=O)(=O)c1ccc3c(c1)OCCO3)C2)c1cccc(Cl)c1 [USP9X Inhibitor 3, (2R)-2-(3-chlorophenyl)-1-[5-(2,3-dihydro-1,4-Benzodioxine-6-sulfonyl)-1H,2H,3H,4H,5H,6H-pyrrolo[3,4-c]pyrrol-2-yl]-3-(methylamino)propan-1-one]
  Production of IFNγ: promoted IFNγ secretion
